These results are taken from article PMC9491098, “Discovery of novel drug-like antitubercular hits targeting the MEP pathway enzyme DXPS by strategic application of ligand-based virtual screening” (Chemical Science, 2022).

Chains of the proteins cited; added tags and fusions are not shown. Lines headed by an entry give the natural chain unless they say otherwise; changes in a name come on top.
UniProt P9WNS3: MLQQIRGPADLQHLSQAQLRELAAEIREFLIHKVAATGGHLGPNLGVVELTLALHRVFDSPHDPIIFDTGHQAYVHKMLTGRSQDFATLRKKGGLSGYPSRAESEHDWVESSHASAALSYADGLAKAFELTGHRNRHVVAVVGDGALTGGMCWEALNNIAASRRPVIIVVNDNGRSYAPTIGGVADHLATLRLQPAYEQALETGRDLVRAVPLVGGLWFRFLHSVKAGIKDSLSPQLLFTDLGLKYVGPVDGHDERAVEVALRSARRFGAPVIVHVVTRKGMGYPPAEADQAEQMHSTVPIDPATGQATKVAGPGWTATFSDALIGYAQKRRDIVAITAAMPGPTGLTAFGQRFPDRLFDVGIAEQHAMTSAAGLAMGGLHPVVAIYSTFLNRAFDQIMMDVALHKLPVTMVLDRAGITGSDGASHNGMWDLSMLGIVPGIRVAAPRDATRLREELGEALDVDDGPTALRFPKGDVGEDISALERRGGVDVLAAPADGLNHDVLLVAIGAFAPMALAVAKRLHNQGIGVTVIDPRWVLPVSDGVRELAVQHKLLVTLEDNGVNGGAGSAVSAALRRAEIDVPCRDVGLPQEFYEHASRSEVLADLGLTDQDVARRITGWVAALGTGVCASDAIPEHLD

Molecules are shown by their SMILES.

For this assay, the target named is MtDXPS (Mycobacterium tuberculosis, UniProt P9WNS3). The experiment in a line: coupled spectrophotometric enzyme activity assay against MtDXPS. In kind it is biochemical.

One may read the IC50 as the point on the concentration scale where inhibition reaches its midpoint. A lower IC50 goes with greater potency. As to `CC(O)c1nc2ccccc2n1Cc1c(F)cccc1Cl` (centres unmarked), the IC50 (Table S2, second round of LBVS) stood at 1100 µM.

For `OCC(O)Cn1c(Cc2ccc(-c3ccccc3)cc2)nc2ccccc21` (centres unmarked), the IC50 (Table S2, second round of LBVS) turned out to be 381 µM.

In the case of `Cc1nc(N)sc1-c1csc(Nc2cccnc2)n1`, the IC50 (Table S3, third round of LBVS) was 377 µM.

Compound `Cc1nc(N)sc1-c1csc(Nc2ccc(S(N)(=O)=O)cc2)n1` yielded an IC50 (Table S3, third round of LBVS) of 315 µM.

Take `O=C(O)c1cccc(-n2cccc2/C=N/O)c1`: the IC50 (Table S1, first round of LBVS) worked out at 455 µM.

The compound `CC(C)c1ccc(Cn2c(CCO)nc3ccccc32)cc1` displayed an IC50 (Table S1, first round of LBVS) of 317 µM.

`OCCc1nc2ccccc2n1Cc1ccccc1` displayed an IC50 (Table S2, second round of LBVS) of 2900 µM.

As to `Cc1c2ncn(Cc3ccc(Cl)cc3)c(=O)c2nn1C`, the IC50 (Table S1, first round of LBVS) came out at 1000 µM.

Regarding `O/N=C(\c1ccc(F)cc1)c1ccc(O)cc1O`, the IC50 (Table S1, first round of LBVS) stood at 528 µM.

Where the note is “Table S3, third round of LBVS”, `FC(F)(F)c1ccccc1Nc1nc(-c2ccccn2)cs1` came in with an IC50 of 86 µM. This lies in the double-digit micromolar range.

`O=C1/C(=N\O)c2cccc(Cl)c2N1Cc1ccccc1`: the IC50 (Table S2, second round of LBVS) came to 165 µM.

Where the note is “Table S3, third round of LBVS”, `FC(F)(F)c1cccc(Nc2nc(-c3ccccn3)cs2)c1` returned an IC50 of 168 µM.

In turn, `CC(c1ccccc1)n1c(CCO)nc2ccccc21` (centres unmarked) gave an IC50 (Table S2, second round of LBVS) of 720 µM.

In the case of `Cc1nc(N)c(CC(Br)CBr)c(Cl)n1` (centres unmarked), the IC50 (Table S1, first round of LBVS) was determined as 748 µM.

`OCCc1nc2ccccc2n1Cc1c(F)cccc1Cl` registered an IC50 (Table S2, second round of LBVS) of 900 µM.

In turn, `NC1=NC(c2ccc(Cl)cc2Cl)n2c(nc3ccccc32)N1` (centres unmarked) returned an IC50 (Table S1, first round of LBVS) of 145 µM.

The compound `OCCc1nc2ccccc2n1Cc1c(Cl)cccc1Cl` gave an IC50 (Table S2, second round of LBVS) of 465 µM.
